The target of test [1] is integrin αMβ2. Briefly: ELISA, integrin coated on plate, anti-human IgG (Fc)-HRP detection. As to the method: (§1) Integrins (αII_{^b}β₃, αVβ₃, αMβ₂, and αLβ₂) were added to 96-well plate at 100 ng/well, respectively, followed by coating at 4° C. overnight. After the coating, the wells were washed three times with PBS-T (0.5% Tween 20). The wells were blocked with 1% BSA (in PBS-T) solution at room temperature for 2 h. After the blocking, the wells were washed three times with PBS-T. Saxatilin-Fc or Fc-saxatilin was diluted serially 4-fold from 100 nM to prepare eight sample solutions.
(§2) 100 μl of the sample solutions were triply loaded to each well, followed by a reaction at room temperature for 2 h. After the reaction, the wells were washed three times with PBS-T. 100 μl of anti-human IgG (Fc)-conjugated HRP antibodies, diluted to 1:20,000, was added to each well, followed by a reaction at room temperature for 1 h. After the reaction, the wells were washed four times with PBS-T. TMB solution was added, followed by a reaction at room temperature for 30 min, and then the reaction was stopped by adding a stop solution (0.5 M H₂SO₄). The absorbance was measured at 450 nm to verify the binding between saxatilin and integrins, involved in an interaction between neutrophils and endothelial cells.
Background: An ELISA detects its analyte on a solid surface through an enzyme-linked reagent.

Test [2] has as its target T1, integrin αLβ2.
T1 construct: Purified integrin coated on a 96-well plate at 100 ng/well
Described as above. As to the method: as §1, §2

B1: saxatilin-Fc (Fc fusion)
chain: not shown
notes: Expressed in 293E cells and purified on protein A; also called saxatilin derivative; recombinant saxatilin
The term Kd denotes the equilibrium constant for the complex coming apart. Read a high Kd as weaker binding. With B1, the figures for the Kd in test [1] and in test [2] were 300 nM and 440 nM, respectively.

B2: Fc-saxatilin (Fc fusion)
chain: not shown
notes: as for B1
For B2, the dissociation constant Kd was determined as 6.9 nM in test [1] and 9.2 nM in test [2].

Source of the values: patent US20160355557A1 (INDUSTRY ACADEMIC COOPERATION FOUNDATION YONSEI UNIVERSITY, published 2016).
